Data: PubChem BioAssay AID588499 (NMMLSC, 2011)
This is a selection; strong and weak results do not stand in their true shares. Activity calls are given as the source filed them. No stated cut-off is given here; in the data, active means inhibition above about 30%; inconclusive means no clear call, values can overlap the other calls; inactive means below that.

system: Botulinum neurotoxin type A light chain protease (Clostridium botulinum A str. ATCC 3502); experiment: BoNT/A light chain protease inhibitors, primary screen, biochemical, flow cytometry, MLPCN library (AID 588499); conditions: multiplex microsphere protease substrate cleavage, at 10 µM, stronger effect = higher value; further: plate controls were buffer without enzyme for full effect and enzyme alone for no effect

Row | Compound | inhibition
1 | CCOP(=O)(Nc1cccc2ccccc12)OCC | inactive: -0.5%
2 | CCC1=CC2Cc3nc4ccc(Cl)cc4c(N)c3C(C1)C2 (stereo not drawn) | inactive: 0.1%
3 | O=P1(Nc2ccccn2)COc2ccccc2OC1 | inactive: 0.4%
4 | CCOP(=O)(NC(=NC(C)c1ccccc1)NC(C)c1ccccc1)OCC (stereo not drawn) | inactive: -2%
5 | CN(CCCl)Cc1cc(Cl)c(NC2=NCCN2)c(Cl)c1 | inactive: 1.5%
6 | CCOP(=O)(Nc1ccc(C)cn1)OCC | inactive: 0%
7 | O=P1(N(CCCl)CCCl)NCCC(C(F)(F)F)O1 (stereo not drawn) | inactive: -0.2%
8 | CC(C)(C)C(=O)NC(Sc1ncccn1)C(Cl)(Cl)Cl (stereo not drawn) | inactive: 0.9%
9 | COc1ccccc1CNC(=O)COC(=O)C(O)(c1ccccc1)c1ccccc1 | inactive: -2.4%
10 | CN(C(=O)Cc1ccc(Cl)c(Cl)c1)[C@@H]1CCCC[C@H]1N1CCCC1 | inactive: -0.4%
11 | CC(C)/C=N\N=C(\N)N[N+](=O)[O-] | inactive: 0.1%
12 | CC1(CBr)Cn2c(nc3ccccc3c2=O)S1 (stereo not drawn) | inactive: -0.6%
13 | Cc1nn(-c2ccccc2)c2c1P(=O)(N1CCOCC1)N(C)C(c1ccccc1)=N2 (stereo not drawn) | inactive: 1%
14 | Cc1ccc(C(=O)OC2CN3CCC2CC3)cc1 (stereo not drawn) | inactive: -3%
15 | CC1CCC(C(C)C)C(OP(=O)(Nc2ccccn2)c2ccccc2)C1 (stereo not drawn) | inactive: -1.5%
16 | CN(C)C1(CNC(=O)c2ccc(S(C)(=O)=O)cc2)CCCCC1 | inactive: -0.4%
17 | O=C(/C=C/c1ccccc1)OC1CN2CCC1CC2 (stereo not drawn) | inactive: -0.5%
18 | CCCC1OP(=O)(Nc2ccccc2)OCC1CC (stereo not drawn) | inactive: 0%
19 | Cc1ccc(S(=O)(=O)N(CCCN)CCCc2c(C)nc(N)[nH]c2=O)cc1 | inactive: -0.5%
20 | O=P1(Nc2ncccn2)COc2ccccc2OC1 | inactive: -1.6%
21 | Nc1cccc([As](=O)(O)c2ccccc2)c1 | inactive: 0.9%
22 | NS(=O)(=O)c1cccc(NC(=O)COC(=O)C(O)(c2ccccc2)c2ccccc2)c1 | inactive: -0.7%

Row | Compound | inhibition
23 | O=[As](O)(c1cccs1)c1cccs1 | inactive: 0.4%
24 | Cc1ccc(OCC(=O)OC2CN3CCC2CC3)cc1 (stereo not drawn) | inactive: -1.8%
25 | CN(C)C1(CNC(=O)c2ccc(Cl)c(S(N)(=O)=O)c2)CCCCC1 | inactive: 1.2%
26 | O=P(Nc1ccccn1)(c1ccc(Br)cc1)c1ccc(Br)cc1 | inactive: -2%
27 | Nc1ccc(CCCCOc2ccccc2)cc1 | inactive: -1.1%
28 | COc1ccc(N)c([N+](=O)[O-])c1[N+](=O)[O-] | inactive: -0.1%
29 | O=P(Nc1nc2ccccc2s1)(c1ccccc1)c1ccccc1 | inactive: -0.5%
30 | C[C@H]1OP(=O)(Oc2ccccc2)[C@H](O)[C@H](O)[C@H]1N=[N+]=[N-] (stereo partly drawn) | inactive: 0.1%
31 | O=[As](O)(c1ccccc1)c1ccc(O)cc1 | inactive: 0.3%
32 | O=[N+]([O-])c1ncn(CCn2cnc([N+](=O)[O-])n2)n1 | inactive: 0%
33 | CC(=O)NC(SC(=S)N(C)C)C(Cl)(Cl)Cl (stereo not drawn) | inactive: 0.4%
34 | O=[N+]([O-])c1ccc(O)c(/C=N/Nc2ccc([N+](=O)[O-])cc2[N+](=O)[O-])c1 | inactive: -3.4%
35 | O=C(OC1CN2CCC1CC2)c1cccc(Cl)c1 (stereo not drawn) | inactive: 0.3%
36 | Nc1ccc([As](=O)(O)c2ccc([N+](=O)[O-])cc2)cc1 | inactive: -0.7%
37 | C(Cc1nn[nH]n1)Cc1nn[nH]n1 | inactive: -0.3%
38 | O=P(Nc1nccs1)(c1ccccc1)c1ccccc1 | inactive: -0.2%
39 | CC(C)C(=O)NC(Sc1ccccc1)C(Cl)(Cl)Cl (stereo not drawn) | inactive: -0.3%
40 | c1nnnn1CCn1cnnn1 | inactive: 0.4%
41 | O=P1(Nc2nc3ccc(Cl)cc3s2)COc2ccccc2O1 (stereo not drawn) | inactive: -0.6%
42 | CCOc1ccc(C2=NCC(CBr)S2)cc1 (stereo not drawn) | inactive: 0.3%
43 | CC(C)(C)C(=O)NC(Sc1ccccc1)C(Cl)(Cl)Cl (stereo not drawn) | inactive: -0.1%
44 | CCc1cc(O)c([N+](=O)[O-])c(C)c1[N+](=O)[O-] | inactive: -0.1%

Row | Compound | inhibition
45 | Cc1ccccc1CN(C)C(=O)COC(=O)C(O)(c1ccccc1)c1ccccc1 | inactive: 1.7%
46 | C[C@@H]1C=CCP(=O)(Oc2ccccc2)O1 (stereo partly drawn) | inactive: -0.1%
47 | C[C@H]1OP(=O)(Oc2ccccc2)C[C@@H]2O[C@@H]21 (stereo partly drawn) | inactive: -0.4%
48 | N#C/C(=C\c1ccc(N(CCBr)CCBr)cc1)C(N)=O | inactive: 0.2%
49 | CC(=O)c1ccc(N2CC2c2ccncc2)cc1 (stereo not drawn) | inactive: -1%
50 | COC(=O)C1(C)COP(=O)(NCc2ccccc2)OC1 (stereo not drawn) | inactive: 0.1%
51 | CC(=O)Nc1ccc([As](=O)(O)O)c(O)c1 | inactive: -0.6%
52 | CC(=O)Nc1ccc(Oc2c([N+](=O)[O-])cc([N+](=O)[O-])cc2[N+](=O)[O-])cc1 | inactive: -1.2%
53 | c1ccc(-c2nn[nH]n2)c(-c2nn[nH]n2)c1 | inactive: -1.4%
54 | O=C(NC1CCS(=O)(=O)C1)NP(=S)(Oc1ccccc1)Oc1ccccc1 (stereo not drawn) | inactive: -2.2%
55 | CCNC(=S)/N=C(\N)N[N+](=O)[O-] | inactive: -0.7%
56 | O=P1(N(CCCl)CCCl)OCCC2CCCCN21 (stereo not drawn) | inactive: -1.4%
57 | O=C(OC1CN2CCC1CC2)c1ccccc1 (stereo not drawn) | inactive: 1.1%
58 | CCC(=O)N1C2C3N(C(=O)CC)C1C1N(C(=O)CC)C(C(N1C(=O)CC)N3C(=O)CC)N2C(=O)CC | inactive: -1%
59 | COC(=O)c1cc2c(s1)N=C(c1ccccc1)N(C)P2(=O)N1CCOCC1 (stereo not drawn) | inactive: -0.2%
60 | Cc1ccc(OP(=O)(Nc2ccccn2)Oc2ccc(C)cc2)cc1 | inactive: -0.9%
61 | CC(=O)NC(SC(=S)N(CC(C)C)CC(C)C)C(Cl)(Cl)Cl (stereo not drawn) | inactive: -1.3%
62 | CC(NC(=O)COC(=O)C(O)(c1ccccc1)c1ccccc1)c1ccccc1 (stereo not drawn) | inactive: 0%
63 | CN(C)C(=O)Oc1noc2ccccc12 | inactive: 2.4%
64 | O=c1c2cc([N+](=O)[O-])ccc2[nH]c2c([N+](=O)[O-])cc([N+](=O)[O-])cc12 | inactive: -0.5%
65 | CN(C)P(=O)(N(C)C)n1c(Nc2ccccc2)nnc1-c1ccccc1 | inactive: -0.5%
66 | O=P(Nc1nc2ccc(Cl)cc2s1)(c1ccccc1)c1ccccc1 | inactive: -0.2%

Row | Compound | inhibition
67 | O=C(O)c1ccccc1[As](=O)(O)O | inactive: 0.2%
68 | CC(=O)Nc1ccc([As](=O)(O)O)cc1 | inactive: -0.2%
69 | CCCC1OP(N)(=O)OCC1CC (stereo not drawn) | inactive: -0.2%
70 | CCOP(=O)(Nc1ccccc1)OCC | inactive: -1.6%
71 | Cc1cc(SC(NC(=O)c2ccc(F)cc2)C(Cl)(Cl)Cl)ncn1 (stereo not drawn) | inactive: -0.7%
72 | CN(C(=O)Cc1ccc(Cl)c(Cl)c1)[C@H]1CCCC[C@@H]1N1CCCC1 | inactive: -1.1%
73 | Cc1ccc(NP(=O)(Oc2ccccc2F)Oc2ccccc2F)nc1 | inactive: -0.5%
74 | Nc1cccc2ccc([As](=O)(O)O)cc12 | inactive: 1.1%
75 | CCN(N=Nc1nonc1N)c1nonc1N | inactive: -0.4%
76 | CN(C(=O)Cc1ccc(Cl)c(Cl)c1)[C@H]1CCCC[C@H]1N1CCCC1 | inactive: -0.4%
77 | Cc1ccc(N/C(=N/P(=O)(N2CCOCC2)N2CCOCC2)N2CCOCC2)cc1 | inactive: 1.2%
78 | NC(=O)c1cc([N+](=O)[O-])cc([N+](=O)[O-])c1N | inactive: -1.2%
79 | Clc1ccc(Cl)c(NC2=NCC(CBr)S2)c1 (stereo not drawn) | inactive: -0.3%
80 | CN1CCCC(OC(=O)C(c2ccccc2)c2ccccc2)C1 (stereo not drawn) | inactive: 1.1%
81 | COc1ccccc1OP(=O)(Nc1ccc(C)cn1)Oc1ccccc1OC | inactive: -1%
82 | Cc1ccc(OP(=O)(Nc2nccs2)Oc2ccc(C)cc2)cc1 | inactive: 1%
83 | Oc1ccccc1CNc1ccccn1 | inactive: -1.2%
84 | O=C(NC(Sc1ccncn1)C(Cl)(Cl)Cl)c1ccccc1 (stereo not drawn) | inactive: -0.9%
85 | CC(C)CC(=O)NC(Sc1ccc(Cl)cc1)C(Cl)(Cl)Cl (stereo not drawn) | inactive: -0.9%
86 | Nc1cc(N)c2nonc2c1[N+](=O)[O-] | inactive: -1.6%
87 | O=[N+]([O-])C1C(O)C(O)C([N+](=O)[O-])C(O)C1O (stereo not drawn) | inactive: -0.5%
88 | COc1ccc(C2=NCC(CBr)S2)cc1 (stereo not drawn) | inactive: -1.1%

Row | Compound | inhibition
89 | Cc1ccc(NP(=O)(Oc2ccccc2)Oc2ccccc2)nc1 | inactive: -0.3%
90 | O=[N+]([O-])c1cc([N+](=O)[O-])c(CCNc2ccccc2)c([N+](=O)[O-])c1 | inactive: -1.1%
91 | CCc1nc2c(n1)c1c(non1O)c1c2no[n+]1[O-] | inactive: 0.2%
92 | CC(=O)N1C2C3N(C(C)=O)C1C1N(C(C)=O)C(C(N1C(C)=O)N3C(C)=O)N2C(C)=O | inactive: 0.6%
93 | O=[N+]([O-])c1cccc2n[nH]nc12 | inactive: 0.3%
94 | CCN(/C(=N/P(=O)(N1CCOCC1)N1CCOCC1)N1CCOCC1)c1ccc(OC)cc1 | inactive: -0.4%
95 | Nc1ccc([As](=O)(O)c2ccc(N)cc2)cc1 | inactive: -0.2%
96 | C[N+]1=C2C=CC=CC=C2SC12C([N+](=O)[O-])=CC([N+](=O)[O-])=C[C-]2[N+](=O)[O-] (stereo not drawn) | inactive: 6.9%
97 | c1cc(-c2nn[nH]n2)ccc1-c1nn[nH]n1 | inactive: 0%
98 | CC1CCN(C(=O)Oc2c(Cl)cc(Cl)c3cccnc23)CC1 | inactive: -0.8%
99 | CC(C)=N/N=C(\N)N[N+](=O)[O-] | inactive: -0.2%
100 | CC(C)c1nc(Nc2ccccc2)n(P(=O)(N(C)C)N(C)C)n1 | inactive: 0.8%
101 | CN(C)C(=O)OCCc1n(C)cc[n+]1C | inactive: 0.1%
102 | O=P1(N(CCCl)CCCl)OCCCS1 (stereo not drawn) | inactive: 0.1%
103 | O=C(Nc1cc([As](=O)(O)O)ccc1O)c1ccccc1 | inactive: 6.1%
104 | O=[N+]([O-])c1ncn(CCn2ncnc2[N+](=O)[O-])n1 | inactive: -0.2%
105 | CC(C)(C)C(=O)NC(Sc1ccncn1)C(Cl)(Cl)Cl (stereo not drawn) | inactive: 0.2%
106 | O=C(O)CNc1ccc([As](=O)(O)O)cc1 | inactive: -5%
107 | O=[N+]([O-])c1cccc(NC2=NCC(CBr)S2)c1 (stereo not drawn) | inactive: -5.7%
108 | COC(=O)C1(C)COP(=O)(Nc2ccccc2)OC1 (stereo not drawn) | inactive: 0%
